Compound potency records, mixed from different reports. Data source: NIAID ChemDB in PubChem.

All rows: whole-cell or culture tests; species: Mycobacterium abscessus

a–b is a range or a potency band.

C[C@@H](O)[C@H]1C(=O)N2C(C(=O)O)=C(SC3CN(C4=NCCS4)C3)S[C@H]12 ; measure: MIC ; read by: visual reading ; strain: L948 ; value: 2 µg/mL
Cc1c(C)c(C)[c-](C)c1C.N[C@@H](Cc1ccccc1)C(=O)[O-].[Cl][Ir+2] ; measure: MIC ; strain: AAy-P-1 ; value: 61 µg/mL
C[C@H](O)[C@H]1C(=O)N2C(C(=O)O)=C(S[C@@H]3CN[C@H](C(=O)N(C)C)C3)[C@H](C)[C@H]12 ; measure: MIC90 ; read by: broth dilution / visual reading ; value: >64 µg/mL
NCCS ; measure: MIC100 ; read by: broth dilution / visual reading ; strain: Clinical isolate MR313292 ; value: 125–250 µg/mL
Cc1c(OCC(F)(F)F)ccnc1CSc1nc2ccccc2[nH]1 ; measure: MIC90 ; read by: resazurin ; strain: 2005-0524 ; value: >100 µM
COc1cc(CC(=O)CO)c(C=O)c(O)c1C ; measure: EC50 ; read by: visual reading ; value: 100 µg/mL
CCN1CCc2c(sc(NC(=O)c3c(F)c(F)c(F)c(F)c3F)c2C(N)=O)C1 ; measure: EC90 ; read by: resazurin / turbidity ; strain: bolletii 103 ; value: >200 µM
CCCCCCCCCCCCCCCCCOC(=O)NC(CCC(=O)O)(CCC(=O)O)CCC(=O)O ; measure: MIC ; strain: AAy-P-1 ; value: 72 µg/mL
Cc1ccn2c(C(=O)NCc3ccc(N4CCCN(c5ccc(C(F)(F)F)cc5)CC4)c(F)c3)c(C)nc2c1 ; measure: MIC50 ; conditions: clinical isolate ; read by: luminescence ; strain: Clinical isolate ; value: >10 µg/mL
CCCCCCCCCCCCCCCCCCCCCC(=O)NC(CCC(=O)O)(CCC(=O)O)CCC(=O)O ; measure: MIC ; strain: AAy-P-1 ; value: 3.4 µg/mL
NCC[C@H](O)C(=O)N[C@@H]1C[C@H](N)[C@@H](O[C@H]2O[C@H](CN)[C@@H](O)[C@H](O)[C@H]2O)[C@H](O)[C@H]1O[C@H]1O[C@H](CO)[C@@H](O)[C@H](N)[C@H]1O ; measure: MIC90 ; read by: broth dilution ; value: 32 µg/mL
NC(=O)c1c(NC(=O)c2c(F)c(F)c(F)c(F)c2F)sc2c1CCOC2 ; measure: EC90 ; read by: turbidity ; value: 86 µM
C[C@H](O)[C@H]1C(=O)N2C(C(=O)O)=C(S[C@@H]3CN[C@H](C(=O)N(C)C)C3)[C@H](C)[C@H]12 ; measure: MIC90 ; read by: broth dilution / visual reading ; strain: ATCC 19977 ; value: >64 µg/mL
CCCCCCCCCCCCC(CCCCCCCCCCCC)OC(=O)NC(CCC(=O)O)(CCC(=O)O)CCC(=O)O ; measure: MIC ; strain: AAy-P-1 ; value: 27 µg/mL
CC(C)N=c1cc2n(-c3ccc(Cl)cc3)c3ccccc3nc-2cc1Nc1ccc(Cl)cc1 ; measure: MIC ; read by: broth dilution ; strain: CIP 104536 ; value: 0.5 µg/mL
CCOC(=O)c1c(-c2ccccc2)c2ccc(Cl)cc2oc1=O ; measure: MIC90 ; read by: resazurin ; strain: ATCC 19977 ; value: >100 µg/mL
CCOC(=O)c1c(NC(=O)c2c(F)c(F)c(F)c(F)c2F)sc2c1CCNC2 ; measure: EC90 ; read by: turbidity ; value: 1.7 µM

2 of the rows above, restated:

compound,measure,conditions,read by,strain,value
Cc1ccn2c(C(=O)NCc3ccc(N4CCCN(c5ccc(C(F)(F)F)cc5)CC4)c(F)c3)c(C)nc2c1,MIC50,clinical isolate,luminescence,Clinical isolate,>10 µg/mL
CCN1CCc2c(sc(NC(=O)c3c(F)c(F)c(F)c(F)c3F)c2C(N)=O)C1,EC90,-,resazurin / turbidity,bolletii 103,>200 µM

A number after MIC or MFC names an inhibition level or a share of isolates. Conditions beyond the fields shown may differ between rows. Blank or dashed fields: not listed here. ECn is the concentration giving n% inhibition of infection, replication or growth.